The target of the assay is His6-DENV2 (TSV101) NS5 (dengue virus 2 (TSV101)). Briefly: AlphaScreen or HTRF.

Drawing on PMC6468590, “Novel Flavivirus Antiviral That Targets the Host Nuclear Transport Importin α/β1 Heterodimer” (Cells, 2019), this text covers Kd for one substance.

In the case of “prebound His6-IMPα/biotinylated-IMPβ1 heterodimer (from UniProt P52293 1-529; P70168 1-876) (complex)”, the Kd worked out at 0.8 nM.

What is called Kd is the constant that tells how readily two partners part at equilibrium.
